Drawing on patent publication US20230174592A1, this text covers mean fluorescence signal (MFI) in the cytoplasm for 1 substance.

In the assay the target is hACE2-mRuby3 (human ACE2 fused at the C-terminus to mRuby3) on 293T-ACE2iRb3 cells (human).

“MERS-RBG (MERS-CoV RBD fused to mGamillus) (ligand)” returned a mean fluorescence signal (MFI) in the cytoplasm of less than 1000 MFI.
